{"source": "patent US12594292B2", "about": "“Antiviral prodrugs, intermediate-and long-acting formulations and methods” (priority 2022, dated 2026)", "assay": "3 month (105 day) study of monthly IM injections of ODE-Bn-TFV in formulation F3 in rats", "details": "3 monthly IM doses at 0, 30 and 60 days", "data": [{"substance": "Octadecyloxyethyl benzyl tenofovir [ODE-Bn-TFV]", "values": [{"measurement": "time therapeutic levels were maintained", "value": 105, "unit": "days"}]}]}
